The values that follow come from article PMC526180, “Conservation and Evolution of Cis-Regulatory Systems in Ascomycete Fungi”.

For at least one entry, the source does not settle the construct or the ends of the probe. A negative result means that nothing was seen under these conditions. A weaker result is weaker than the reference pair of the same experiment.

The subject of data set [1] is Ca_Rpn4p (Candida albicans NIH 3147 (ATCC 10231D)). The experiment in a line: SPR. To be noted: Biacore 3000 SA chip, recombinant protein, protein details: N-terminal calmodulin-binding protein tag (pCAL-n). (SPR reads the build-up and loss of mass on a sensor chip optically.)
For data set [2] the test system is unchanged. In words: competition with a labelled probe. To be noted: SPR, 1x and 5x competitor, HBS: 10 mM HEPES pH 7.4, 150 mM NaCl, 3 mM EDTA, 0.005% P20, room temperature, 10 ul/min, 90 s injection, competitors preincubated 50 min on ice, recombinant protein, protein details: N-terminal calmodulin-binding protein tag (pCAL-n).

Regarding “GCGTGCCAGATAATCAGTGGCAACACGGAAGAAAAAGTGA (double strand) [Sequence C]”, the binding result in data set [1] (50 nM protein, nearly the same as Sequence B) was “binds more weakly”. As to “CCAGATAATCGGTGGCAACACGGAAGAAAA (double strand) [Sequence F competitor]”, the binding result in data set [2] is “binds more weakly”. On to “GCGTGCCAGATAATCGAAGGCAAAACGGAAGAAAAAGTGA (double strand) [Sequence B]”, for which the binding result in data set [1] (50 nM protein, nearly the same as Sequence C) is “binds more weakly”. For the sequence “CCAGATAATCCTGCATTTGGCGGAAGAAAA (double strand) [Sequence G competitor]”, the binding result in data set [2] is “no binding”. For “CCAGATAATCGGTGGCAAAACGGAAGAAAA (double strand) [Sequence D competitor]”, in data set [2] (best competitor on Sequences A, B, C), the binding result is “binds”. With “CCAGATAATCAGTGGCAAAACGGAAGAAAA (double strand) [Sequence E competitor]”, the binding result in data set [2] is “binds more weakly”. “ACTTGTTCCCGCTCGCTGGAGCTCCTCCAACGACACGGGC (double strand) [Sequence I]”: the binding result in data set [1] is on record as “no binding”. With “GCGTGCCAGATAATCGGTGGCAAAACGGAAGAAAAAGTGA (double strand) [Sequence A]”, the binding result in data set [1] (50 nM protein) is reported as “binds”.
